PSTVd loop 6 mutant pool in Nicotiana benthamiana

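Three N. benthamiana plants were inoculated with the whole mutant pool. Samples came from the inoculated region at 5 days, the leaf margin at 10 and upper systemic leaves at 12.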

The pool varies loop 6 of the PSTVd intermediate strain in the pattern UNNNCGNNNG; wild type is UGACCGCGAG (upper and lower strand joined, each 5' to 3', the first 5 letters being the upper strand, closing pairs included).

Numbers give reads per thousand; 0 = not seen among the reads, higher = more abundant.
Each site shows the three plants.
"Pool" is the share in the plasmid pool used as inoculum, on the same scale.
The inoculated region was read from the minus strand, the other sites from the plus strand.
IR is the inoculated region, LM the leaf margin, Sys the systemic leaves.
Wild type was 20.7 per thousand in the pool and the most common sequence in every sample (inoculated region 195, 198, 203; leaf margin 629, 591, 734; systemic leaves 942, 870, 868).

| sequence | pool | IR | LM | Sys |
|---|---|---|---|---|
| UCCAGGUUCG | 0.0131 | 0 / 0 / 0 | 0 / 0 / 0 | 0 / 0 / 0 |
| UCCCCAGCGG | 0.0131 | 0 / 0 / 0 | 0 / 0 / 0 | 0 / 0 / 0 |
| UCCCCGAAAG | 0.209 | 0.0869 / 0.0180 / 0.0922 | 0 / 0.0252 / 0 | 0 / 0 / 0 |
| UCCCCGAACG | 0.209 | 0.209 / 0.0898 / 0.0553 | 0 / 0 / 0.0232 | 0 / 0 / 0 |
| UCCCCGAAGG | 0.157 | 0.122 / 0.0719 / 0.0553 | 0 / 0 / 0 | 0 / 0 / 0 |
| UCCCCGAAUG | 0.497 | 0.0348 / 0.0359 / 0.0738 | 0 / 0 / 0.0232 | 0 / 0 / 0 |
| UCCCCGACAG | 0.405 | 0.209 / 0.108 / 0 | 0 / 0 / 0 | 0 / 0 / 0 |
| UCCCCGACCG | 0.222 | 0.104 / 0.0719 / 0.111 | 0 / 0 / 0.0464 | 0 / 0 / 0 |
| UCCCCGACGG | 0.275 | 0.122 / 0.126 / 0.129 | 0 / 0 / 0.0232 | 0 / 0 / 0 |
| UCCCCGACUG | 0.275 | 0.174 / 0.162 / 0.0738 | 0 / 0 / 0 | 0 / 0 / 0 |
| UCCCCGAGAG | 0.275 | 0.122 / 0.144 / 0.0922 | 0 / 0.732 / 0.0464 | 0 / 0 / 0 |
| UCCCCGAGCG | 0.275 | 0.0695 / 0.0719 / 0.148 | 0 / 0.0504 / 0.0464 | 0 / 0 / 0 |
| UCCCCGAGGG | 0.144 | 0.0695 / 0.0898 / 0.0553 | 0 / 0 / 0.0232 | 0 / 0 / 0 |
| UCCCCGAGUG | 0.353 | 0.104 / 0.0539 / 0.0553 | 0.0276 / 0.0504 / 0 | 0 / 0 / 0 |
| UCCCCGAUAG | 0.418 | 0.156 / 0.0719 / 0.111 | 0 / 0 / 0.0928 | 0 / 0 / 0 |
| UCCCCGAUCG | 0.288 | 0.0174 / 0.0180 / 0.0369 | 0 / 0 / 0.0232 | 0 / 0 / 0 |
| UCCCCGAUGG | 0.248 | 0.139 / 0.0719 / 0.0553 | 0 / 0.328 / 0 | 0 / 0 / 0 |
| UCCCCGAUUG | 0.340 | 0.191 / 0.0539 / 0.0369 | 0 / 0.0504 / 0.0232 | 0.0180 / 0 / 0 |
| UCCCCGCAAG | 0.222 | 0.504 / 0.557 / 0.572 | 0 / 0.0252 / 0.139 | 0 / 0.0808 / 0.103 |
| UCCCCGCACG | 0.235 | 0.0869 / 0.126 / 0.0738 | 0 / 0 / 0.0464 | 0 / 0 / 0 |
| UCCCCGCAGG | 0.275 | 0.174 / 0.0719 / 0.0369 | 0 / 0 / 0.0232 | 0 / 0 / 0 |
| UCCCCGCAUG | 0.261 | 0.174 / 0.144 / 0.0553 | 0 / 0.0252 / 0 | 0 / 0 / 0.0205 |
| UCCCCGCCAG | 0.209 | 0.0869 / 0.0898 / 0.0553 | 0.0276 / 0 / 0 | 0 / 0 / 0 |
| UCCCCGCCCG | 0.379 | 0.191 / 0.0898 / 0.111 | 0 / 0 / 0 | 0 / 0.0202 / 0 |
| UCCCCGCCGG | 0.248 | 0.0869 / 0.0539 / 0.148 | 0.0276 / 0 / 0 | 0 / 0 / 0 |
| UCCCCGCCUG | 0.327 | 0.139 / 0.198 / 0.111 | 0 / 2.17 / 0 | 0 / 0 / 0 |
| UCCCCGCGAG | 0.405 | 0.330 / 0.287 / 0.406 | 0.221 / 17.6 / 0.302 | 0.0539 / 0.0404 / 0.205 |
| UCCCCGCGAU | 0.0131 | 0.0174 / 0.0898 / 0.129 | 0.0552 / 0.0252 / 0.0232 | 0 / 0 / 0 |
| UCCCCGCGCG | 0.209 | 0.156 / 0.144 / 0.0922 | 0 / 0.0252 / 0 | 0 / 0 / 0 |
| UCCCCGCGGG | 0.288 | 0.104 / 0.0898 / 0.0553 | 0.0552 / 0.0252 / 0.0232 | 0 / 0 / 0 |
| UCCCCGCGUG | 0.196 | 0.382 / 0.251 / 0.295 | 0.0276 / 1.44 / 0.232 | 0.0180 / 0 / 0.0205 |
| UCCCCGCUAG | 0.209 | 0.156 / 0.144 / 0.111 | 0 / 0 / 0.0232 | 0 / 0 / 0 |
| UCCCCGCUCG | 0.366 | 0.104 / 0.0898 / 0.111 | 0 / 0.0252 / 0 | 0 / 0 / 0 |
| UCCCCGCUGG | 0.170 | 0.104 / 0.108 / 0.0553 | 0.0276 / 0 / 0 | 0 / 0 / 0 |
| UCCCCGCUUG | 0.222 | 0.191 / 0.108 / 0.0922 | 0 / 0.0252 / 0.0232 | 0 / 0 / 0 |

Extract of 3 entries:

sequence,pool,IR,LM,Sys
UCCCCGAUUG,0.340,0.191 / 0.0539 / 0.0369,0 / 0.0504 / 0.0232,0.0180 / 0 / 0
UCCCCGCGGG,0.288,0.104 / 0.0898 / 0.0553,0.0552 / 0.0252 / 0.0232,0 / 0 / 0
UCCCCGCGAG,0.405,0.330 / 0.287 / 0.406,0.221 / 17.6 / 0.302,0.0539 / 0.0404 / 0.205

With 36,220-57,551 reads a sample, very low values are single reads.
Sequences that differ at fixed positions probably stem from PCR or sequencing errors, and defective variants can be carried along by functional ones.

The measurements come from Wu et al. 2024 (doi:10.1371/journal.ppat.1012142).